{
  "source": "paper PMC11267843",
  "target": "PITG_13587 bZIP (Phytophthora infestans) (UniProt D0NMC1)",
  "assay": "EMSA",
  "settings": "self-competitor at 1, 10, 50-fold; recombinant protein; protein details: 6xHis, GST (N- or C-terminal, per PBM vectors); label: Cy5 (probe), unlabeled as competitor",
  "note": "The exact form of at least one protein or probe is not confirmed.",
  "data": [
    {"sequence": "ATGCCCGTCTCTAACACGTGTCCTCTCGATACTA (double strand) [bZIP wild-type motif]", "values": [
      {"measurement": "binding result", "result": "binds"}
    ]}
  ]
}
